Measured values from several laboratories, pooled; numbers as filed in NIAID ChemDB.

Shared fields: toxicity to cultured cells; read-out: CC50

Blank or dashed fields: not listed here.

SMILES | cells | read by | value
OC(c1ccc(F)cc1)c1cc(C23CC4CC(CC(C4)C2)C3)c2ccccc2n1 | Mouse fibroblasts | MTT / absorbance | >200 µg/mL
CCSc1nsc(-c2ccccc2)c1C#N | L929 | - | 100 µg/mL
CC1(C)[C@@H](O[C@H]2O[C@H](C(=O)O)[C@@H](O)[C@H](O)[C@H]2O[C@@H]2O[C@H](C(=O)O)[C@@H](O)[C@H](O)[C@H]2O)CC[C@]2(C)[C@H]3C(=O)C=C4[C@@H]5C[C@](C)(C(=O)O)CC[C@]5(C)CC[C@@]4(C)[C@]3(C)CC[C@@H]12 | Huh7.5 | WST | >30 µg/mL
COc1cc2c(cc1OC)CN(Cc1ccc(O)cc1)CC2 | KB cells | - | >20 µg/mL
N#Cc1c(SCCO)nsc1-c1ccccc1 | L929 | - | 5 µg/mL
O=C(/C=C/c1ccc(O)cc1)c1ccc(O)cc1O | Huh7.5 | WST | 11 µg/mL
C[C@@H](O)C1=C[C@@H](n2cnc3c(N)ncnc32)[C@H](O)[C@@H]1O | P4 | - | >36 µM
OC[C@H]1O[C@@H](n2cnc3cc(Cl)c(Cl)cc32)[C@H](O)[C@@H]1O | E6SM | - | 40 µg/mL
COc1ccc(C(O)c2cc(C34CC5CC(CC(C5)C3)C4)c3ccccc3n2)cc1 | Mouse fibroblasts | MTT / absorbance | >200 µg/mL
CSc1nsc(-c2ccccc2)c1C#N | HEP-2 | - | 20 µg/mL
CC1(C)C=Cc2c(ccc3c2OC[C@@H](c2ccc(O)cc2O)C3)O1 | Huh7.5 | WST | 22.7 µg/mL
OC(c1cc(C23CC4CC(CC(C4)C2)C3)c2ccccc2n1)c1cccc2ccccc12 | Mouse fibroblasts | MTT / absorbance | >200 µg/mL
CC(C)[Si]1(C(C)C)OC[C@H]2O[C@@H](n3cnc4cc(Cl)c(Cl)cc43)[C@@H](O)[C@H]2O[Si](C(C)C)(C(C)C)O1 | E6SM | - | 200 µg/mL
C#C[C@H](O)C1=C[C@@H](n2cnc3c(N)ncnc32)[C@H](O)[C@@H]1O | P4 | - | >104 µM
O=c1[nH]c(=O)n([C@@H]2O[C@H](CO)[C@@H](O)[C@@H]2O)cc1/C=C/Br | SupT1 | - | >250 µg/mL
O[C@H]1[C@@H](O)COC(n2cnc3cc(Cl)c(Cl)cc32)[C@@H]1O | E6SM | - | >400 µg/mL
Nc1ncnc2c1ncn2[C@@H]1CC[C@@H](O)[C@H]1O | P4 | - | 55 µM
CC(=O)O[C@H]1C(=O)[C@@]2(C)[C@H]([C@H](OC(=O)c3ccccc3)[C@]3(O)C[C@H](OC(=O)[C@H](O)[C@@H](NC(=O)c4ccccc4)c4ccccc4)C(C)=C1C3(C)C)[C@]1(OC(C)=O)CO[C@@H]1C[C@@H]2O | A459 | MTT | 0.0035 µg/mL
COc1cc2c(cc1O)[C@@H]1Cc3ccc(OC)c(O)c3CN1CC2 | Vero cells | - | >20 µg/mL
O=C(O)P(=O)(O)O | CD4+ T lymphocytes | - | 132 µg/mL
NNC(=O)c1cc(C23CC4CC(CC(C4)C2)C3)c2ccccc2n1 | Mouse fibroblasts | MTT / absorbance | >200 µg/mL
O=c1[nH]c(=O)n([C@H]2C[C@H](O)[C@@H](CO)O2)cc1C12B3B4B5B6B(B3B1B42)B1B5C61 | BFU-E | - | 57.1 µM
O=C1C[C@@H](c2ccc(OC3O[C@H](CO)[C@@H](O)[C@H](O)[C@H]3O)cc2)Oc2cc(O)ccc21 | Huh7.5 | WST | 570 µg/mL
CC[C@@]1(O)C(=O)OCc2c1cc1n(c2=O)Cc2cc3ccccc3nc2-1 | HL-60 | MTT | 0.651 µg/mL
Cc1cc(NS(=O)(=O)c2ccc(N3C(=O)CSC3c3ccc(C(F)(F)F)cc3)cc2)no1 | HCT116 | MTT | >100 µg/mL
CN(C)c1ccc(C(O)c2cc(C34CC5CC(CC(C5)C3)C4)c3ccccc3n2)cc1 | Mouse fibroblasts | MTT / absorbance | >200 µg/mL
CC(C)=CC[C@H]1C[C@]2(C[C@H]3CCC(C)(C)C=C3C)C(=O)C3=C(OC(C)(C)CC3)[C@@](C(=O)c3ccccc3)(C2=O)C1(C)C | P-388 | sulforhodamine / absorbance | >50 µM
OC(c1ccccc1)c1cc(C23CC4CC(CC(C4)C2)C3)c2ccccc2n1 | Mouse fibroblasts | MTT / absorbance | >200 µg/mL
CCCSc1nsc(-c2ccccc2)c1C(=O)OC | HEP-2 | - | 50 µg/mL
O[C@@H]1[C@@H](OCc2ccccc2)[C@@H](COCc2ccccc2)O[C@H]1n1cnc2cc(Cl)c(Cl)cc21 | E6SM | - | 40 µg/mL
CC(C)=CC[C@H]1C[C@@]2(C[C@H]3CCC(C)(C)C=C3C)C(=O)[C@](C(=O)c3ccccc3)(C(=O)C3=C2OC(C)(C)C=C3)C1(C)C | ASK (Atlantic salmon kidney) | sulforhodamine / absorbance | >50 µM
Cc1cc(NS(=O)(=O)c2ccc(N3C(=O)CSC3c3c(Cl)cccc3Cl)cc2)no1 | HCT116 | MTT | >100 µg/mL
O[C@@H]1CC(n2cnc3cc(Cl)c(Cl)cc32)OC[C@@H]1O | E6SM | - | ≥100 µg/mL
Nc1ncnc2c1ncn2CCOCP(=O)(O)O | SupT1 | - | 43 µg/mL
C[C@H](O)C1=C[C@@H](n2cnc3c(N)ncnc32)[C@H](O)[C@@H]1O | P4 | - | >36 µM
O=C(O)C1=CC(=C(c2ccc(O)c(C(=O)O)c2)c2ccc(O)c(C(=O)O)c2)C=CC1=O | SupT1 | - | 52 µg/mL
CC1(C)[C@@H](O[C@H]2O[C@H](C(=O)O)[C@@H](O)[C@H](O)[C@H]2O[C@@H]2O[C@H](C(=O)O)[C@@H](O)[C@H](O)[C@H]2O)CC[C@]2(C)[C@H]3C(=O)C=C4[C@@H]5C[C@@](C)(C(=O)O)CC[C@]5(C)CC[C@@]4(C)[C@]3(C)CC[C@@H]12 | Huh7.5 | WST | 690 µg/mL
O=C1c2c(O)cc(O)cc2O[C@H](c2ccc(O)cc2)[C@H]1c1c(O)cc(O)c2c(=O)cc(-c3ccc(O)c(O)c3)oc12 | ASK (Atlantic salmon kidney) | sulforhodamine / absorbance | >50 µM
CCCCC(O)c1cc(C23CC4CC(CC(C4)C2)C3)c2ccccc2n1 | Mouse fibroblasts | MTT / absorbance | >200 µg/mL
COc1ccc(-c2cc(OC)c(O)c(OC)c2O)cc1 | P-388 | sulforhodamine / absorbance | 37.87 µM
C=C[C@H](O)C1=C[C@@H](n2cnc3c(N)ncnc32)[C@H](O)[C@@H]1O | P4 | - | >138 µM

For reference, 4 entries again:

| SMILES | cells | read by | value |
|---|---|---|---|
| O=c1[nH]c(=O)n([C@@H]2O[C@H](CO)[C@@H](O)[C@@H]2O)cc1/C=C/Br | SupT1 | - | >250 µg/mL |
| CSc1nsc(-c2ccccc2)c1C#N | HEP-2 | - | 20 µg/mL |
| CC1(C)C=Cc2c(ccc3c2OC[C@@H](c2ccc(O)cc2O)C3)O1 | Huh7.5 | WST | 22.7 µg/mL |
| CC1(C)[C@@H](O[C@H]2O[C@H](C(=O)O)[C@@H](O)[C@H](O)[C@H]2O[C@@H]2O[C@H](C(=O)O)[C@@H](O)[C@H](O)[C@H]2O)CC[C@]2(C)[C@H]3C(=O)C=C4[C@@H]5C[C@@](C)(C(=O)O)CC[C@]5(C)CC[C@@]4(C)[C@]3(C)CC[C@@H]12 | Huh7.5 | WST | 690 µg/mL |

CCn: concentration that lowers growth or viability of the cells by n%. Neighbouring rows are from separate reports.